This note sets out measurements from patent US20090232853A1, “TREATMENT OF LAMINITIS” (priority 2005, published 2009).

The series relates to equine cecal contents. Put plainly: in vitro model of equine hindgut, carbohydrate overload: pH and amine production.

As for cornstarch, the “concentrations of the caecal-derived amines phenylethylamine, isoamylamine, putriscine and cadaverine” value (end of 24 hour incubation, carbohydrate 1 g/100 mL, compared to control, HPLC) is “significantly greater concentrations”. Also, where the note is “incubated 24 h with carbohydrate 1 g/100 mL, compared with control without added carbohydrate”, the “pH in the model system” value is on record as “fell significantly”.
